A mixed list of measured activities; the numbers were collected in NIAID ChemDB.

Common to all: tests in culture; organism: HIV-1; read-out: EC50

Neighbouring rows are from separate reports. An empty or dashed field is not shown. ECn: concentration that inhibits the pathogen or its effect by n%.

structure	strain or isolate	setting	cells	method	changes	value
Cc1c(O)cccc1C(=O)N[C@@H](CSc1ccccc1)[C@@H](CN1C[C@H]2CCCC[C@H]2C[C@H]1C(=O)NC(C)(C)C)OC(=O)CCCCOc1ccc(C[C@H](NC(=O)OC(C)(C)C)C(=O)O)cc1	IIIB	-	MT-4	cytopathic effect / MTT	-	2.05 µM
C#C[C@]1(COC(=O)C(C)CCCCC)O[C@@H](n2cnc3c(N)nc(F)nc32)C[C@@H]1O	NL4-3	pseudotyped	U373-CD4-CXCR4	-	M184V	0.007 µM
Cc1cn([C@@H]2O[C@H](CO[Si](C)(C)C(C)(C)C)C3(O[C@H]3C(N)=O)[C@H]2O[Si](C)(C)C(C)(C)C)c(=O)[nH]c1=O	IIIB	-	MT-4	cytopathic effect / trypan blue	-	>2 µM
Nc1nc(=O)n([C@H]2CC[C@@H](CO)O2)cc1F	RF	-	MT-4	p24	-	0.19 µM
CC(C)(C)[Si](C)(C)OC[C@H]1O[C@@H](n2ccc(=O)[nH]c2=O)[C@H](O[Si](C)(C)C(C)(C)C)C1(O)C(Cl)C(N)=O	IIIB	-	MT-4	cytopathic effect / trypan blue	-	>2 µM
CC(C)C1=C2[C@H]3CC[C@@H]4[C@@]5(C)CC[C@H](OC(=O)[C@H]6C[C@@H](C(=O)O)C6(C)C)C(C)(C)[C@@H]5CC[C@@]4(C)[C@]3(C)CC[C@@]2(CCNCc2ccc(S(C)(=O)=O)cc2)CC1=O	92HT599	-	MT-2	p24 / ELISA	-	<1 µM
CC1=N/C(=C/c2ccccc2)C(=O)N1c1nc(C)cc(Cl)n1	-	-	-	RT activity	-	61.71 µg/mL
C#C[C@]1(COC(=O)C(CCCC)CCCCCC)O[C@@H](n2cnc3c(N)nc(F)nc32)C[C@@H]1O	NL4-3	pseudotyped	U373-CD4-CXCR4	-	M184V	0.113 µM
[2H]C(CN)(CNC(=O)C[C@@]12CC[C@]3(C)[C@H](CC[C@@H]4[C@@]5(C)CC[C@H](OC(=O)[C@H]6C[C@@H](C(=O)O)C6(C)C)C(C)(C)[C@@H]5CC[C@]43C)C1=C(C(C)C)C(=O)C2)NC(=O)c1ccc(Cl)cc1	92HT599	-	MT-2	p24 / ELISA	-	<1 µM
CC(C)(C)NC(=O)[C@@H]1CN(Cc2cccnc2)CCN1C[C@H](C[C@@H](Cc1ccccc1)C(=O)N[C@H]1c2ccccc2C[C@H]1O)OC(=O)COc1ccc(C[C@H](N)C(=O)O)cc1	LAI	-	CEM	RT activity	-	0.01 µM
CC(C)C1=C2[C@H]3CC[C@@H]4[C@@]5(C)CC[C@H](OC(=O)[C@H]6C[C@@H](C(=O)O)C6(C)C)C(C)(C)[C@@H]5CC[C@@]4(C)[C@]3(C)CC[C@@]2([C@@H](O)CNCC(C)(C)NC(=O)c2ccc(Cl)cc2O[C@H]2CCOC2)CC1=O	92HT599	-	MT-2	p24 / ELISA	-	<1 µM
COc1cc(/C=C2/N=C(C)N(c3nc(C)cc(=O)[nH]3)C2=O)cc(OC)c1OC	-	-	-	RT activity	-	71.33 µg/mL
COC(=O)CC1(O)C(O[Si](C)(C)C(C)(C)C)[C@H](n2ccc(=O)[nH]c2=O)O[C@@H]1CO[Si](C)(C)C(C)(C)C	LAI	-	PBMC	RT activity	-	>10 µM
Nc1ncnc2c1ncn2[C@@H]1O[C@H](CO)[C@H]1CO	IIIB	-	MT-4	antigen	-	<1 µg/mL
CC(C)(C)NC(=O)[C@@H]1CN(Cc2cccnc2)CCN1C[C@H](C[C@@H](Cc1ccccc1)C(=O)N[C@H]1c2ccccc2C[C@H]1OC(=O)CCCCOc1ccc(C[C@H](NC(=O)OC(C)(C)C)C(=O)O)cc1)OC(=O)CCCCOc1ccc(C[C@H](NC(=O)OC(C)(C)C)C(=O)O)cc1	IIIB	-	MT-4	cytopathic effect / MTT	-	>1 µM
CS(=O)(=O)Oc1ccc(Cl)c2c1C(=O)c1ccccc1C2=O	IIIB	-	C8166	syncytia	-	17.9 µg/mL
COc1ccc(/C(C)=N/NC(=O)c2ccncc2)c(OC)c1	IIIB	-	MT-4	MTT	-	>12 µM
CC1=N/C(=C/c2ccc(Cl)cc2)C(=O)N1c1nc(C)cc(=O)[nH]1	-	-	-	RT activity	-	60.77 µg/mL
COC(=O)/C=C1/[C@@H](O[Si](C)(C)C(C)(C)C)[C@H](n2cc(C)c(=O)[nH]c2=O)O[C@@H]1CO[Si](C)(C)C(C)(C)C	IIIB	-	MT-4	cytopathic effect / trypan blue	-	>2 µM
CC(C)CCC[C@@H](C)[C@H]1CC[C@H]2[C@@H]3CC[C@H]4C[C@@H](CCC=C(c5cc(Cl)c(O)c(C(=O)O)c5)c5cc(Cl)c(O)c(C(=O)O)c5)CC[C@]4(C)[C@H]3CC[C@]12C	IIIB	-	MT-4	cytopathic effect	-	1.8 µg/mL
O=C1C(=O)c2cc(-c3cc(O)c(O)c(O)c3)ccc2C(Oc2c(O)cc(-c3ccc4cc(O)c(O)c(O)c4c3)cc2O)=C1O	-	-	-	-	-	3.9 µM
CN(C)CCN1C(=O)C2C3C=CC(C3=C(c3ccccc3)c3ccccc3)C2C1=O	IIIB	-	MT-4	cytopathic effect / MTT	-	>26 µM
COc1ccc(Cn2ccc3c(-c4ccc5c(c4)CCCO5)c(C(OC(C)(C)C)C(=O)O)n(C)c(=O)c32)cc1	IIIB	-	MT-4	MTS	-	0.1 µM
CC(C)C1=C2[C@H]3CC[C@@H]4[C@@]5(C)CC[C@H](OC(=O)[C@H]6C[C@@H](C(=O)O)C6(C)C)C(C)(C)[C@@H]5CC[C@@]4(C)[C@]3(C)CC[C@@]2(CCNC[C@H](NC(=O)c2ccc(Cl)cc2)C(C)O)CC1=O	92HT599	-	MT-2	p24 / ELISA	-	<1 µM
Nc1ccn(N2CC[C@@H](CO)C2)c(=O)n1	RF	-	MT-4	-	-	>100 µg/mL
Nc1ncnc2c1ncn2[C@@H]1O[C@H](CO)[C@@H]1O	IIIB	-	MT-4	antigen	-	<0.2 µg/mL
Cc1cc(Cl)nc(N2C(=O)/C(=C\c3ccccc3O)N=C2c2ccccc2)n1	-	-	-	RT activity	-	46.43 µg/mL
C#C[C@]1(COC(=O)C(C)(C)C)O[C@@H](n2cnc3c(N)nc(F)nc32)C[C@@H]1O	NL4-3	pseudotyped	U373-CD4-CXCR4	-	M184V	0.15 µM
CC(=O)Nc1ccc(F)c2c(C(=O)C(=O)N3CC/C(=C(\C#N)c4cccnc4)CC3C)c[nH]c12	-	-	HeLa	luciferase / reporter gene	-	<1 µM
CCCCCCCCCCCCCC(=O)OC[C@H]1O[C@@H](n2cnc3c(N)ncnc32)[C@@H]1CO	IIIB	-	MT-4	-	-	2.4 µg/mL
C#C[C@]1(COC(=O)CC(F)(F)F)O[C@@H](n2cnc3c(N)nc(F)nc32)C[C@@H]1O	NL4-3	pseudotyped	U373-CD4-CXCR4	-	M184V	0.037 µM
C[C@@H]1CN(C(=O)c2ccccc2)CCN1C(=O)C(=O)c1c[nH]c2c(NC(=O)C(N)C(O)C(=O)O)cccc12	-	-	HeLa	luciferase / reporter gene	-	<1 µM
CC(C)C[C@H](NC(=O)OC(C)(C)C)C(=O)O[C@H](CN1C[C@H]2CCCC[C@H]2C[C@H]1C(=O)NC(C)(C)C)[C@H](Cc1ccccc1)NC(=O)[C@H](CC(N)=O)NC(=O)c1ccc2ccccc2n1	LAI	-	CEM	RT activity	-	0.137 µM
O=C1c2ccccc2C(=O)c2c(Cl)ccc(O)c21	IIIB	-	C8166	syncytia	-	39.73 µg/mL
Cc1cccc(-c2ccccc2)c1Nc1nc(N(C)Cc2ccc3c(c2)CCO3)nc(=O)[nH]1	NL4-3	-	CEM-SS	cytopathic effect	-	0.05 µM
CC(C)C1=C2[C@H]3CC[C@@H]4[C@@]5(C)CC[C@H](OC(=O)[C@H]6C[C@@H](C(=O)O)C6(C)C)C(C)(C)[C@@H]5CC[C@@]4(C)[C@]3(C)CC[C@@]2([C@@H](O)CNCC(F)(CN)NC(=O)c2ccc(Cl)cc2)CC1=O	92HT599	-	MT-2	p24 / ELISA	-	<1 µM
O=C1NC(=O)C2C1[C@@H]1C=C[C@H]2C1=C(c1ccccc1)c1ccccc1	IIIB	-	MT-4	cytopathic effect / MTT	-	>51 µM
CC(C)(C)[Si](C)(C)OC[C@H]1O[C@@H](n2ccc(=O)[nH]c2=O)[C@H](O[Si](C)(C)C(C)(C)C)[C@@]12O[C@H]2C(N)=O	IIIB	-	MT-4	cytopathic effect / trypan blue	-	>10 µM
O=c1[nH]cnc2c1ncn2[C@@H]1O[C@H](CO)[C@H]1CO	IIIB	-	MT-4	hybridisation	-	<300 µg/mL
CCOC(=O)CC1(O)[C@@H](CO[Si](C)(C)C(C)(C)C)O[C@@H](n2ccc(=O)[nH]c2=O)[C@@H]1O[Si](C)(C)C(C)(C)C	IIIB	-	MT-4	cytopathic effect / trypan blue	-	>10 µM
C[C@@H]1CN(C(=O)c2ccccc2)CCN1C(=O)C(=O)c1c[nH]c2c(NC(=O)[C@H]3OC(C)(C)O[C@@H]3C(=O)O)cccc12	-	-	HeLa	luciferase / reporter gene	-	<1 µM
CCCCCCCC/C=C\CCCCCCCC(=O)OCC(COC(=O)CCCCCCC/C=C\CCCCCCCC)OC(=O)CCC(=O)O[C@@H]1Cc2ccccc2[C@@H]1NC(=O)[C@H](Cc1ccccc1)C[C@H](O)CN1CCN(Cc2cccnc2)C[C@H]1C(=O)NC(C)(C)C	IIIB	-	MT-4	cytopathic effect / MTT	-	6.9 µM
CC(C)C1=C2[C@H]3CC[C@@H]4[C@@]5(C)CC[C@H](OC(=O)[C@H]6C[C@@H](C(=O)O)C6(C)C)C(C)(C)[C@@H]5CC[C@@]4(C)[C@]3(C)CC[C@@]2(CC(=O)NCC(F)(NC(=O)c2ccc(Cl)cc2)C(C)O)CC1=O	92HT599	-	MT-2	p24 / ELISA	-	<1 µM
Cc1ccc(S(=O)(=O)Oc2ccc(Cl)c3c2C(=O)c2ccccc2C3=O)cc1	IIIB	-	C8166	syncytia	-	37.53 µg/mL
CCCCCCCCCCCCCCCC(=O)OCC(COC(=O)CCCCCCCCCCCCCCC)OC(=O)CCC(=O)O[C@@H](C[C@@H](Cc1ccccc1)C(=O)N[C@H]1c2ccccc2C[C@H]1OC(=O)CCC(=O)OC(COC(=O)CCCCCCCCCCCCCCC)COC(=O)CCCCCCCCCCCCCCC)CN1CCN(Cc2cccnc2)C[C@H]1C(=O)NC(C)(C)C	LAI	-	CEM	RT activity	-	4.6 µM

Repeating the final 2 entries:

Cc1ccc(S(=O)(=O)Oc2ccc(Cl)c3c2C(=O)c2ccccc2C3=O)cc1 ; strain or isolate: IIIB ; cells: C8166 ; method: syncytia ; value: 37.53 µg/mL
CCCCCCCCCCCCCCCC(=O)OCC(COC(=O)CCCCCCCCCCCCCCC)OC(=O)CCC(=O)O[C@@H](C[C@@H](Cc1ccccc1)C(=O)N[C@H]1c2ccccc2C[C@H]1OC(=O)CCC(=O)OC(COC(=O)CCCCCCCCCCCCCCC)COC(=O)CCCCCCCCCCCCCCC)CN1CCN(Cc2cccnc2)C[C@H]1C(=O)NC(C)(C)C ; strain or isolate: LAI ; cells: CEM ; method: RT activity ; value: 4.6 µM